This experiment deals with MVIIA (SNX-111) binding site ("Site 1") (Rattus norvegicus, UniProt Q02294). The settings on record: read-out: IC50 at the SNX-111 binding site.

Sequences of proteins named here, by UniProt entry; tags and fusion partners are left off.
UniProt Q02294, whole entry, looked up: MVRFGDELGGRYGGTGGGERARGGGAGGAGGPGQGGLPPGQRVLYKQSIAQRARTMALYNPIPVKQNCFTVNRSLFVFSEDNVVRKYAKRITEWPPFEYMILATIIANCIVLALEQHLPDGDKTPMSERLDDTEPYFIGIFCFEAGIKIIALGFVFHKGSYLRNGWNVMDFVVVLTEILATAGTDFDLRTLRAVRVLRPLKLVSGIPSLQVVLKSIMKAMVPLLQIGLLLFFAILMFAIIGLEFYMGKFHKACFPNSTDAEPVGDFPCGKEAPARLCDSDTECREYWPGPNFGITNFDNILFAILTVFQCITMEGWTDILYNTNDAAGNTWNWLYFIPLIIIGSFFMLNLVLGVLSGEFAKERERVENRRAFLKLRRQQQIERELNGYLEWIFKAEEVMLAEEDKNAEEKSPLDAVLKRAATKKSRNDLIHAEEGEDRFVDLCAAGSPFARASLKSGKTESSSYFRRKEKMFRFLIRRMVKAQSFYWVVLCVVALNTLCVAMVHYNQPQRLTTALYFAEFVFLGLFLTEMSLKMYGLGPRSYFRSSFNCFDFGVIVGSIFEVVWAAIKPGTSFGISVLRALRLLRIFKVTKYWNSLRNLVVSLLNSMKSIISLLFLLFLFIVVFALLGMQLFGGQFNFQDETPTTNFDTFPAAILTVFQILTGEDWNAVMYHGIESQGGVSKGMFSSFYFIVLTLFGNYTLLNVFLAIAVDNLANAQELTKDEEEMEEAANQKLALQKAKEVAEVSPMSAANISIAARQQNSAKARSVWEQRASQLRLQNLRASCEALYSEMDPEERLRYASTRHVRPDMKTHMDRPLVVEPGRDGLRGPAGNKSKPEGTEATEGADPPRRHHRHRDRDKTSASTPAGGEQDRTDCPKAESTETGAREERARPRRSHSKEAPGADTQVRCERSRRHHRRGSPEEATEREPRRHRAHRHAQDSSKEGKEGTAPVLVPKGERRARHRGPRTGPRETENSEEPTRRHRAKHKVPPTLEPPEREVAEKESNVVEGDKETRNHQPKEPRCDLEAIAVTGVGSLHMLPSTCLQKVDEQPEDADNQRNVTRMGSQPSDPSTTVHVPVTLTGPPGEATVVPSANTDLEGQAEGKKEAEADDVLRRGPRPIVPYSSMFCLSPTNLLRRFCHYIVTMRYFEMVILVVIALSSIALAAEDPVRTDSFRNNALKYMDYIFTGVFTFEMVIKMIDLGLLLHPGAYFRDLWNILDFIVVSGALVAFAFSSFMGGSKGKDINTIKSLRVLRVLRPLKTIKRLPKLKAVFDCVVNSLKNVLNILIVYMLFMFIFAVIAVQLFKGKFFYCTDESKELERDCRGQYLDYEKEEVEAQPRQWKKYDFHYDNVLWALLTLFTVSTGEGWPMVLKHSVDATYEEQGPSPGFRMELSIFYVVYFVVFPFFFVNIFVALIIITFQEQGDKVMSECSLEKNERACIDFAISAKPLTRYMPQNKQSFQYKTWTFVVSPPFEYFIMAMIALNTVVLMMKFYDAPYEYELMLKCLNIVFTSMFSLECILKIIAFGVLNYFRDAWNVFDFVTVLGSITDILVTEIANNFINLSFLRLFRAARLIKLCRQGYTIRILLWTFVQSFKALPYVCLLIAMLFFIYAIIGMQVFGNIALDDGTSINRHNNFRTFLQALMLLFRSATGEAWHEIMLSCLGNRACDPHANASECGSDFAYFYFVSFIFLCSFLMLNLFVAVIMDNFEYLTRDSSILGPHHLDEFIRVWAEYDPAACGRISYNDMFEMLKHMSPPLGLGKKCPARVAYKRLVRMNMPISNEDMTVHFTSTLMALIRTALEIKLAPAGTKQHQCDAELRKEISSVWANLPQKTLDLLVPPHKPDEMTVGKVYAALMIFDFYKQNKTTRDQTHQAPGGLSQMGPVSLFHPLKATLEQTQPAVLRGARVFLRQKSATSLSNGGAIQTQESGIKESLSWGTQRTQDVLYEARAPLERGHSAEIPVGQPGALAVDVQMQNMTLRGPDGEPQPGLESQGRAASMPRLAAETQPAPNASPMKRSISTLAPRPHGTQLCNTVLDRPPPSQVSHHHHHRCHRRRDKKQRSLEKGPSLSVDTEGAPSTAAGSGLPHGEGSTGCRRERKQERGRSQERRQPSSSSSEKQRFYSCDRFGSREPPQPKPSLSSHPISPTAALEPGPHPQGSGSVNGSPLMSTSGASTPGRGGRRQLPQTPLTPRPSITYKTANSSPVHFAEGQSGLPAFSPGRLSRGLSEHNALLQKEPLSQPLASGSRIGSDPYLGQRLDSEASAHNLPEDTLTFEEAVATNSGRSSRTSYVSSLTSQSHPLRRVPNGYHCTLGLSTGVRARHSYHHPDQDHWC

Consider one substance from patent EP1336409B1 (priority 1995, dated 1997).

In general, IC50 refers to the point on the concentration scale where inhibition reaches its midpoint. As to [ala^12-SNX-111 [SNX-273], the IC50 was 8 pM.
